{"source": "patent US20060122276A1", "about": "“Agent for inhibiting membrane virus reproduction, method for the production thereof, pharmaceutical composition and method for inhibiting viral infections” (priority 2003, published 2006)", "key": {"HIV-1 [1]": {"test_system": "HIV-1", "test": "Treatment of HIV-1-infected patients, blood sample analyses"}, "HIV-1 [2]": {"test_system": "HIV-1"}}, "note": "Where two headings read alike, the source gives them in different places.", "data": [{"substance": "sodium salt of fullerene-polyamino-caproic acid", "values": [{"measurement": "T-index", "setting": "HIV-1 [1]; Patient A, after 1 month, 20 mg rectal suppository every day, before treatment 0.9", "value": 0.8}, {"measurement": "T-index", "setting": "HIV-1 [1]; Patient A, after 2 months, 20 mg rectal suppository every day, before treatment 0.9", "value": 1.1}, {"measurement": "T-index", "setting": "HIV-1 [1]; Patient A, after 3 months, 20 mg rectal suppository every day, before treatment 0.9", "value": 0.9}, {"measurement": "T-index", "setting": "HIV-1 [1]; Patient B, after 1 month, 20 mg rectal suppositories every three days, before treatment 0.6", "value": 1.3}, {"measurement": "T-index", "setting": "HIV-1 [1]; Patient B, after 2 months, 20 mg rectal suppositories every three days, before treatment 0.6", "value": 1.0}, {"measurement": "T-index", "setting": "HIV-1 [1]; Patient B, after 3 months, 20 mg rectal suppositories every three days, before treatment 0.6", "value": 0.8}, {"measurement": "Viability of cells, %", "setting": "HIV-1 [2]; 0.25 μg/ml, HIV-1-infected lymphoblastoid cells, 5th day", "value": 67, "unit": "%"}, {"measurement": "Viability of cells, %", "setting": "HIV-1 [2]; 0.5 μg/ml, HIV-1-infected lymphoblastoid cells, 5th day", "value": 71, "unit": "%"}, {"measurement": "Viability of cells, %", "setting": "HIV-1 [2]; 1 μg/ml, 2 hrs of contact, washing off of cells No, 6th day", "value": 87, "unit": "%"}, {"measurement": "Viability of cells, %", "setting": "HIV-1 [2]; 1 μg/ml, 2 hrs of contact, washing off of cells No, 8th day", "value": 87, "unit": "%"}, {"measurement": "Viability of cells, %", "setting": "HIV-1 [2]; 1 μg/ml, 2 hrs of contact, washing off of cells Yes, 6th day", "value": 69, "unit": "%"}, {"measurement": "Viability of cells, %", "setting": "HIV-1 [2]; 1 μg/ml, 2 hrs of contact, washing off of cells Yes, 8th day", "value": 17, "unit": "%"}, {"measurement": "Viability of cells, %", "setting": "HIV-1 [2]; 1.0 μg/ml, HIV-1-infected lymphoblastoid cells, 5th day", "value": 79, "unit": "%"}, {"measurement": "Viability of cells, %", "setting": "HIV-1 [2]; 1 μg/ml, exposure 1 hr, washing off of cells Yes, 6th day", "value": 83, "unit": "%"}, {"measurement": "Viability of cells, %", "setting": "HIV-1 [2]; 1 μg/ml, exposure 1 hr, washing off of cells Yes, 8th day", "value": 64, "unit": "%"}, {"measurement": "Viability of cells, %", "setting": "HIV-1 [2]; 1 μg/ml, exposure 2 hrs, washing off of cells Yes, 6th day", "value": 88, "unit": "%"}, {"measurement": "Viability of cells, %", "setting": "HIV-1 [2]; 1 μg/ml, exposure 2 hrs, washing off of cells Yes, 8th day", "value": 79, "unit": "%"}, {"measurement": "Viability of cells, %", "setting": "HIV-1 [2]; 1 μg/ml, exposure 24 hrs, washing off of cells Yes, 6th day", "value": 87, "unit": "%"}, {"measurement": "Viability of cells, %", "setting": "HIV-1 [2]; 1 μg/ml, exposure 24 hrs, washing off of cells Yes, 8th day", "value": 89, "unit": "%"}, {"measurement": "Viability of cells, %", "setting": "HIV-1 [2]; 1 μg/ml, exposure during the entire experiment, washing off of cells No, 6th day", "value": 83, "unit": "%"}, {"measurement": "Viability of cells, %", "setting": "HIV-1 [2]; 1 μg/ml, exposure during the entire experiment, washing off of cells No, 8th day", "value": 84, "unit": "%"}, {"measurement": "Viability of cells, %", "setting": "HIV-1 [2]; 10 μg/ml, 2 hrs of contact, washing off of cells No, 6th day", "value": 89, "unit": "%"}, {"measurement": "Viability of cells, %", "setting": "HIV-1 [2]; 10 μg/ml, 2 hrs of contact, washing off of cells No, 8th day", "value": 89, "unit": "%"}, {"measurement": "Viability of cells, %", "setting": "HIV-1 [2]; 10 μg/ml, 2 hrs of contact, washing off of cells Yes, 6th day", "value": 74, "unit": "%"}, {"measurement": "Viability of cells, %", "setting": "HIV-1 [2]; 10 μg/ml, 2 hrs of contact, washing off of cells Yes, 8th day", "value": 35, "unit": "%"}, {"measurement": "Viability of cells, %", "setting": "HIV-1 [2]; 10 μg/ml, HIV-1-infected lymphoblastoid cells, 5th day", "value": 87, "unit": "%"}, {"measurement": "Viability of cells, %", "setting": "HIV-1 [2]; 10 μg/ml, exposure 2 hrs (first such line, r25), washing off of cells Yes, 6th day", "value": 84, "unit": "%"}, {"measurement": "Viability of cells, %", "setting": "HIV-1 [2]; 10 μg/ml, exposure 2 hrs (first such line, r25), washing off of cells Yes, 8th day", "value": 91, "unit": "%"}, {"measurement": "Viability of cells, %", "setting": "HIV-1 [2]; 10 μg/ml, exposure 2 hrs (second such line, r29), washing off of cells Yes, 6th day", "value": 93, "unit": "%"}, {"measurement": "Viability of cells, %", "setting": "HIV-1 [2]; 10 μg/ml, exposure 2 hrs (second such line, r29), washing off of cells Yes, 8th day", "value": 91, "unit": "%"}, {"measurement": "Viability of cells, %", "setting": "HIV-1 [2]; 10 μg/ml, exposure 24 hrs, washing off of cells Yes, 6th day", "value": 92, "unit": "%"}, {"measurement": "Viability of cells, %", "setting": "HIV-1 [2]; 10 μg/ml, exposure 24 hrs, washing off of cells Yes, 8th day", "value": 91, "unit": "%"}, {"measurement": "Viability of cells, %", "setting": "HIV-1 [2]; 10 μg/ml, exposure during the entire experiment, washing off of cells No, 6th day", "value": 91, "unit": "%"}, {"measurement": "Viability of cells, %", "setting": "HIV-1 [2]; 10 μg/ml, exposure during the entire experiment, washing off of cells No, 8th day", "value": 88, "unit": "%"}, {"measurement": "Viability of cells, %", "setting": "HIV-1 [2]; 100 μg/ml, HIV-1-infected lymphoblastoid cells, 5th day", "value": 89, "unit": "%"}, {"measurement": "Viability of cells, %", "setting": "HIV-1 [2]; preparation 1 hr after infecting, HIV-1", "value": 92, "unit": "%"}, {"measurement": "Viability of cells, %", "setting": "HIV-1 [2]; preparation 2 hrs before infecting, HIV-1", "value": 96, "unit": "%"}, {"measurement": "Viability of cells, %", "setting": "HIV-1 [2]; preparation + virus simultaneously, HIV-1", "value": 94, "unit": "%"}]}]}
